Test results: patent EP2829536A1, “4-Nitro-5-dichloromethylpyrazol derivatives for the treatment of infectious diseases” (priority 2013, dated 2015)

Experiments:
L929 cell line [1] = assay: MTT assay, acute toxic effect (24 h); type: cell-based, mouse; settings: IC50 L929 1 day (acute toxic effect) / MIC M. tuberculosis H37Rv
L929 cell line [2] = assay: MTT assay, effect on proliferation (5 days); type: cell-based, mouse; settings: IC50 L929 5 days / MIC M. tuberculosis H37Rv

SMILES: CNCCOc1nn(-c2c(Cl)cc(Cl)cc2Cl)c(C(Cl)Cl)c1[N+](=O)[O-].Cl [LX079, 2-((5-(Dichloromethyl)-4-nitro-1-(2,4,6-trichlorophenyl)-1H-pyrazol-3-yl)oxy)-N-methylethanaminium chloride]
- SI (IC50/MIC) (L929 cell line [1]): 65.3
- SI (IC50/MIC) (L929 cell line [1]; listed as vz0825): 30.6
- SI (IC50/MIC) (L929 cell line [2]): exceeding 10
- SI (IC50/MIC) (L929 cell line [2]; listed as vz0825): 12.2
